Anti-infective test results gathered from many reports (values: NIAID ChemDB through PubChem).

Common to all: host cell toxicity; cells: MT-4; read-out: CC50

Neighbouring rows are from separate reports. CCn is the concentration with n% toxicity to the cells.

{"structure": "CC(C)CN(C[C@@H](O)[C@H](Cc1ccccc1)NC(=O)O[C@H]1CCOC1)S(=O)(=O)c1ccc2ncn(C)c2c1", "value": ">32.4 µM"}
{"structure": "Nn1c(-c2ccc(Cl)c(Cl)c2)n[nH]c1=S", "value": "72.83 µg/mL"}
{"structure": "COc1ncnc(NS(=O)(=O)c2ccc(N=C3C(=O)N(CN4CCNCC4)c4ccccc43)cc2)c1OC", "value": "2.3 µg/mL"}
{"structure": "Nc1nc(=O)n([C@@H]2CO[C@@H](CO)S2)cc1F", "value": ">100 µg/mL"}
{"structure": "Fc1ccccc1Cn1c(-c2ccccc2F)nc2ccccc21", "value": "23.33 µM"}
{"structure": "Clc1ccc(-c2nnc3sc(-c4cccs4)nn23)cc1Cl", "value": "92.7 µg/mL"}
{"structure": "CCOC(=O)c1cn(CC(O)CSc2ccccc2C(=O)NC(C)(C)C)cc1-c1ccccc1", "value": "94 µM"}
{"structure": "Cc1ccc2nc(-c3c(F)cccc3F)n(Cc3c(F)cccc3F)c2c1", "value": "30.45 µM"}
{"structure": "Nc1ncnc2c1ncn2[C@@H]1CO[C@H](CO)S1", "value": ">100 µg/mL"}
{"structure": "CCOCn1c(Cc2c(F)c(F)cc(F)c2F)c(CC)c(=O)[nH]c1=O", "value": ">100 µM"}
{"structure": "Nc1ccc(-c2nn3c(-c4ccc(Cl)c(Cl)c4)nnc3s2)cc1", "value": "19.61 µg/mL"}
{"structure": "Nc1ncnc2c1ncn2[C@H]1CC[C@@H](CO)O1", "value": "260 µg/mL"}
{"structure": "CCN1C[C@H](C)N2C(=C(O)C3C(=O)N4Cc5ccc(F)cc5OCCCS(=O)(=O)N(C)C(=N4)C32)C1=O", "value": "11.3 µM"}
{"structure": "Cc1cn([C@@H]2OC[C@H](OCCP(=O)(O)O)[C@H]2O)c(=O)[nH]c1=O", "value": ">250 µM"}
{"structure": "COC(=O)Nc1nc2ccc(S(=O)(=O)N(CC(C)C)C[C@@H](O)[C@H](Cc3ccccc3)NC(=O)COc3c(C)cc(C#N)cc3C)cc2[nH]1", "value": ">100 µM"}
{"structure": "CCOC(=O)c1ccccc1SCC(O)Cn1cc(C(=O)OCC)c(-c2ccccc2)c1", "value": "50 µM"}
{"structure": "CC(C)CN(C[C@@H](O)[C@H](Cc1ccccc1)NC(=O)O[C@H]1CO[C@H]2OCC[C@H]21)S(=O)(=O)c1ccc2nc(N)n(C)c2c1", "value": ">100 µM"}
{"structure": "Cc1c(Sc2ccccc2)n(C/C=C/c2cc3ccccc3o2)c(=O)[nH]c1=O", "value": ">1 µM"}
{"structure": "CCN(CC)CN1C(=O)C(=Nc2ccc(S(=O)(=O)Nc3ncnc(OC)c3OC)cc2)c2ccccc21", "value": "118.9 µg/mL"}
{"structure": "Cc1cccc(C)c1OCC(=O)N[C@@H](Cc1ccccc1)[C@H](O)CN(CC(C)C)S(=O)(=O)c1ccc2nc[nH]c2c1", "value": "61.7 µM"}
{"structure": "Nc1ncnc2c1ncn2[C@H]1C[C@@H](OCCP(=O)(O)O)CO1", "value": ">250 µM"}
{"structure": "Cc1cn([C@H]2CO[C@@H](CO)S2)c(=O)[nH]c1=O", "value": ">100 µg/mL"}
{"structure": "Cc1c(Sc2ccccc2)n(COCCN(c2ccccc2)c2ccccc2)c(=O)[nH]c1=O", "value": ">1 µM"}
{"structure": "CCOC(=O)c1cn(CC(O)CNc2ccc(C)cc2)cc1-c1ccccc1", "value": ">200 µM"}
{"structure": "CCOCn1c(Cc2cc(F)ccc2F)c(CC)c(=O)[nH]c1=O", "value": ">100 µM"}
{"structure": "COc1ncnc(NS(=O)(=O)c2ccc(N=C3C(=O)N(CN4CCOCC4)c4ccc(C)cc43)cc2)c1OC", "value": "8.9 µg/mL"}
{"structure": "CCc1c(Sc2ccccc2)n(C/C=C/c2cccs2)c(=O)[nH]c1=O", "value": ">1 µM"}
{"structure": "Cc1cn([C@@H]2C[C@H](O)[C@@H](CO)S2)c(=O)[nH]c1=O", "value": ">100 µM"}
{"structure": "O=C(Nc1cccc(C(=O)Nc2ccc(C(=O)Nc3cc(S(=O)(=O)O)cc4cc(S(=O)(=O)O)cc(S(=O)(=O)O)c34)cc2)c1)Nc1cccc(C(=O)Nc2ccc(C(=O)Nc3cc(S(=O)(=O)O)cc4cc(S(=O)(=O)O)cc(S(=O)(=O)O)c34)cc2)c1", "value": ">50 µg/mL"}
{"structure": "Nc1ccc(-c2n[nH]c(=S)n2N)cc1", "value": "12 µg/mL"}
{"structure": "COC(=O)c1ccccc1NCC(O)Cn1c(C(=O)NC(C)(C)C)cc2ccccc21", "value": "39 µM"}
{"structure": "COc1ncnc(NS(=O)(=O)c2ccc(N=C3C(=O)N(CN4CCOCC4)c4ccccc43)cc2)c1OC", "value": "<2.1 µg/mL"}
{"structure": "Cc1c(Sc2ccccc2)n(COCCNC(=O)CCP(=O)(O)O)c(=O)[nH]c1=O", "value": ">1 µM"}
{"structure": "Cc1cn([C@H]2C[C@H](N=[N+]=[N-])[C@@H](CO)S2)c(=O)[nH]c1=O", "value": ">100 µM"}
{"structure": "COc1cc2nc(-c3c(F)cccc3Cl)n(Cc3c(F)cccc3Cl)c2cc1Cc1c(F)cccc1Cl", "value": "18.75 µM"}
{"structure": "CC(C)CN(C[C@@H](O)[C@H](Cc1ccccc1)NC(=O)OCc1cncs1)S(=O)(=O)c1ccc2ncn(CC(C)C)c2c1", "value": "63.1 µM"}
{"structure": "O=C(Nc1cccc(-c2ccc(C(=O)Nc3ccc(S(=O)(=O)O)c4cc(S(=O)(=O)O)cc(S(=O)(=O)O)c34)cc2)c1)Nc1cccc(-c2ccc(C(=O)Nc3ccc(S(=O)(=O)O)c4cc(S(=O)(=O)O)cc(S(=O)(=O)O)c34)cc2)c1", "value": ">500 µg/mL"}
{"structure": "COc1ncnc(NS(=O)(=O)c2ccc(N=C3C(=O)Nc4ccccc43)cc2)c1OC", "value": "104.1 µg/mL"}
{"structure": "Cc1c(Sc2ccccn2)n(COCCSc2ccccc2)c(=O)[nH]c1=O", "value": ">1 µM"}
{"structure": "O=c1[nH]c(=O)c2ncn([C@@H]3O[C@H](CO)[C@H]3CO)c2[nH]1", "value": ">300 µg/mL"}
{"structure": "CCN1C[C@H](C)N2C(=C(O)C3C(=O)N4Cc5ccc(F)cc5C(=O)NCCCCCCN(C)C(=N4)C32)C1=O", "value": "0.5 µM"}
{"structure": "CCOCn1c(Cc2cc(C)cc(C)c2)c(C(C)C)c(=O)[nH]c1=O", "value": "43 µM"}
{"structure": "COc1ncnc(NS(=O)(=O)c2ccc(N=C3C(=O)N(CN4CCCC4)c4ccc(C)cc43)cc2)c1OC", "value": "22.6 µg/mL"}
{"structure": "Nc1ncnc2c1ncn2[C@@H]1CO[C@@H](CO)S1", "value": ">100 µg/mL"}
{"structure": "C=CCOCn1c(Cc2cccc(C(F)(F)F)c2)c(CC)c(=O)[nH]c1=O", "value": "77 µM"}
{"structure": "CC(C)CN(C[C@@H](O)[C@H](Cc1ccccc1)NC(=O)OCc1cncs1)S(=O)(=O)c1ccc2nc(N)[nH]c2c1", "value": ">100 µM"}
{"structure": "CCc1c(Sc2ccccc2)n(C/C=C/c2cc3ccccc3o2)c(=O)[nH]c1=O", "value": ">1 µM"}
{"structure": "CC(C)CN(C[C@@H](O)[C@H](Cc1ccccc1)NC(=O)OC1COC2OCCC12)S(=O)(=O)c1ccc2ncn(Cc3ccccc3)c2c1", "value": "63.1 µM"}
{"structure": "O=c1[nH]c(=O)n([C@@H]2C[C@H](O)[C@@H](CO)S2)cc1/C=C/Br", "value": ">500 µM"}